Anti-infective test results gathered from many reports (values: NIAID ChemDB through PubChem).

Shared fields: target-level tests; agent: HIV-1; target: Protease; read-out: IC50

Rows are shuffled and stem from different studies. An empty or dashed field is not shown. ICn is the concentration giving n% inhibition.

smiles	method	setting	result
CCC(C)[C@H](NC(=O)CCCCCCCCCCCCCCC(=O)N[C@@H](CC(N)=O)C(=O)N[C@@H](Cc1ccc2ccccc2c1)C(=O)O)C(=O)N[C@@H](Cc1ccccc1)C(N)=O	HPLC	-	0.627 µM
O=C(N[C@@H](Cc1ccccc1)[C@H](Cc1ccccc1)n1cc(CN2CCN(c3ccncc3)CC2)nn1)OC1CCCC1	fluorescence	-	>5 µM
CC(C)[C@H](NC(=O)OCc1ccccc1)C(=O)N[C@@H](Cc1ccccc1)[C@@H](O)CNC[C@@H](O)[C@H](Cc1ccccc1)NC(=O)OC(C)(C)C	HPLC	pH 5.5	10 µM
CC(C)[C@H](NC(=O)OCc1ccncc1)C(=O)N[C@@H](Cc1ccccc1)[C@H](O)[C@@H](O)[C@H](Cc1ccccc1)NC(=O)[C@@H](NC(=O)OCc1ccncc1)C(C)C	fluorescence	-	>0.002 µM
O=C1c2cccc(O)c2C(=O)c2cccc(O)c21	fluorescence	-	78 µM
CCC(C)[C@H](NC(=O)CCCCCCCCCCCCCCC(=O)N[C@@H](CC(N)=O)C(=O)N[C@@H](CC1CCCCC1)C(=O)O)C(=O)N[C@@H](Cc1ccccc1)C(N)=O	HPLC	-	0.665 µM
Nc1c(O)c(S(=O)(=O)O)c(O)c2c1C(=O)c1ccccc1C2=O	fluorescence	-	70 µM
CC(C)[C@H](NC(=O)OCc1ccccc1)C(=O)N[C@@H](Cc1ccccc1)[C@H](O)[C@H](Cc1ccccc1)NC(=O)[C@@H](NC(=O)OCc1ccccn1)C(C)C	fluorescence	-	<0.005 µM
CC(C)(C)COC(=O)N[C@@H](Cc1ccccc1)[C@H](O)CNC[C@@H](O)[C@H](Cc1ccccc1)NC(=O)OCC(C)(C)C	HPLC	pH 5.5	10 µM
O=C(N[C@@H](Cc1ccccc1)[C@H](Cc1ccccc1)n1cc(CN2CCC(n3c(=O)[nH]c4ccccc43)CC2)nn1)OC1CCCC1	fluorescence	-	>5 µM
CC(C)(C)OC(=O)N[C@@H](Cc1ccccc1)[C@H](O)CNC[C@@H](O)[C@H](Cc1ccccc1)NC(=O)O[C@@H]1COC[C@H]1O	HPLC	pH 5.5	<10 µM
CCC(C)[C@H](NC(=O)CCCCCCCCCCCCCCC(=O)N[C@@H](CC(N)=O)C(=O)N[C@@H](Cc1ccc([N+](=O)[O-])cc1)C(=O)O)C(=O)N[C@@H](Cc1ccccc1)C(N)=O	HPLC	-	0.868 µM
CC(C)[C@H](NC(=O)Cn1ccnc1)C(=O)N[C@@H](Cc1ccccc1)C(O)[C@H](Cc1ccccc1)NC(=O)[C@@H](NC(=O)OCc1ccccc1)C(C)C	fluorescence	-	>0.01 µM
O=C1C=C(O)c2ccccc2C1=O	fluorescence	-	>100 µM
O=C(N[C@@H](Cc1ccccc1)[C@H](Cc1ccccc1)n1cc(CN2CCN(c3cccc(Cl)c3)CC2)nn1)OC1CCCC1	fluorescence	-	<5 µM
CC(C)(C)OC(=O)N[C@@H](Cc1ccccc1)[C@H](O)CNC[C@@H](O)[C@H](Cc1ccccc1)NC(=O)OC1CCCOC1	HPLC	pH 5.5	<10 µM
CCC(C)[C@H](NC(=O)CCCCCCCCCCCCCCC(=O)N[C@@H](CC(N)=O)C(=O)N[C@@H](Cc1ccccc1)C(=O)O)C(=O)N[C@@H](CCO)C(N)=O	HPLC	-	>1 µM
O=C1c2ccc(O)c(O)c2C(=O)c2c(O)ccc(O)c21	fluorescence	-	35 µM
O=C(N[C@@H](Cc1ccccc1)[C@H](Cc1ccccc1)n1cc(CN2CCC(Cc3ccccc3)CC2)nn1)OC1CCCC1	fluorescence	-	<5 µM
CC(C)[C@H](NC(=O)OCc1ccccc1)C(=O)N[C@@H](Cc1ccccc1)C(=O)C(F)(F)CCc1ccccc1	fluorescence	-	<0.005 µM
O=C1c2ccccc2C(=O)c2c1ccc(O)c2O	fluorescence	-	12 µM

3 of the rows above, restated:

| smiles | method | setting | result |
|---|---|---|---|
| O=C(N[C@@H](Cc1ccccc1)[C@H](Cc1ccccc1)n1cc(CN2CCC(n3c(=O)[nH]c4ccccc43)CC2)nn1)OC1CCCC1 | fluorescence | - | >5 µM |
| CCC(C)[C@H](NC(=O)CCCCCCCCCCCCCCC(=O)N[C@@H](CC(N)=O)C(=O)N[C@@H](Cc1ccccc1)C(=O)O)C(=O)N[C@@H](CCO)C(N)=O | HPLC | - | >1 µM |
| CC(C)[C@H](NC(=O)OCc1ccncc1)C(=O)N[C@@H](Cc1ccccc1)[C@H](O)[C@@H](O)[C@H](Cc1ccccc1)NC(=O)[C@@H](NC(=O)OCc1ccncc1)C(C)C | fluorescence | - | >0.002 µM |